A mixed list of measured activities; the numbers were collected in NIAID ChemDB.

All rows: toxicity to cultured cells; cells: HepG2 2.2.15; endpoint: CC50

Conditions beyond the fields shown may differ between rows. Blank or dashed fields: not listed here. CCn is the concentration with n% toxicity to the cells.

smiles	method	result
COC(=O)[C@H]1C[C@H](O)[C@@]2(O)[C@@H](C1)O[C@@]1(C[C@H](OC(=O)c3ccc(O)cc3)[C@H](C)CO1)[C@@H]2O	MTT	104 µM
Nc1ncnc2c1ccn2[C@H]1C=C[C@@H](CO)C1		>200 µM
Nc1ncnc2c1ncn2[C@@H]1C[C@@H](F)[C@H](CO)O1		187 µM
Cc1cc(C)cc(Sc2cc(=O)[nH]c(=O)[nH]2)c1		>100 µM
COC1OC(CSc2ncc(C)c(=O)[nH]2)C(O)C1O		>100 µM
CC1=C[C@H](O)CC(C)(C)[C@H]1/C=C/C(C)=C/C=C/C(C)=C/C=C/C=C(C)/C=C/C=C(C)/C=C/C1=C(C)C[C@@H](C)CC1(C)C	MTT	>40 µg/mL
Cc1ccc(NCC(=O)NNC(=S)Nc2ccccc2)cc1		>100 µM
Nc1ncnc2c1ncn2[C@H]1CC(F)[C@@H](CO)O1		>200 µM
CCc1c(Sc2cc(Cl)ccc2C)[nH]c(=O)[nH]c1=O		>100 µM
COC(=O)C(C)(C)NP(=O)(OC[C@H]1O[C@@H](n2cnc3c(N)ncnc32)CC1F)Oc1ccccc1		3.2 µM
CCCCCCCCCCCCC/C=C/C=C/C(CCCCCC)ON1C=CC=CN1O		>50 µg/mL
O=C1NC(=O)/C(=C/N2CCN(C(c3ccccc3)c3ccc(Cl)cc3)CC2)S1		54.02 µM
O=c1c2ccccc2cnn1CC(O)CO		>10 µM
NNC(=O)CSc1nnc(CNc2ccccc2)n1-c1ccccc1		>100 µM
C/C(=N\N=C(N)N)c1ccc(NC(=O)Nc2cc(/C(C)=N/N=C(N)N)cc(/C(C)=N/N=C(N)N)c2)cc1		63 µM
O=C(CSc1nnc(CNc2ccccc2)n1-c1ccccc1)NN=CC(O)C(O)C(O)CO		>100 µM
C=CCn1c(=O)c(-c2cc(CO)n(-c3ccccc3)n2)nc2ccccc21	MTT	>100 µM
COC(=O)C(C)(C)NP(=O)(OC[C@@H]1C=C[C@H](n2ccc3c(N)ncnc32)C1)Oc1ccccc1		64 µM
COC1OC(CSc2nc(C)cc(=O)[nH]2)C(O)C1O		>100 µM
S=c1nc(CNc2ccccc2)[nH][nH]1		>100 µM
C[C@@H]1CO[C@@]2(C[C@@H]1OC(=O)c1ccc(O)cc1)O[C@@H]1C[C@@H](C(=O)O[C@@H]3C[C@H](O)[C@@H](O)[C@H](O)[C@H]3OC3O[C@H](CO)[C@@H](O)[C@H](O)[C@H]3O)C[C@H](O)[C@@H]1[C@H]2O	MTT	2.3 µM
Nc1ncnc2c1ccn2[C@@H]1C=C[C@H](CO)C1		50 µM
COC1OC(CSc2nccc(=O)[nH]2)C(O)C1O		>100 µM
Nc1ncnc2c1nc(-c1ccccc1)n2[C@H]1CC[C@@H](CO)C1	visual reading	>200 µM
C=CCn1c(=O)c(-c2cc(COC(C)=O)n(-c3ccccc3)n2)nc2ccccc21	MTT	>100 µM
Cc1ccc(NCc2nnc(Nc3ccccc3)s2)cc1		>100 µM
CNc1nc2c(N)ncnc2n1[C@H]1CC[C@@H](CO)C1	visual reading	>200 µM
COC(=O)[C@H](Cc1ccccc1)NP(=O)(OC[C@H]1C=C[C@@H](n2ccc3c(N)ncnc32)C1)Oc1ccccc1		>36 µM
CO[C@@]12C[C@@H](C(=O)O[C@@H]3C[C@H](O)[C@@H](O)[C@H](O)[C@H]3OC3O[C@H](CO)[C@@H](O)[C@H](O)[C@H]3O)C[C@H](O)[C@]1(O)[C@@H](O)[C@]1(C[C@H](OC(=O)c3ccc(O)cc3)[C@H](C)CO1)O2	MTT	165.5 µM
Nc1ncnc2c1ccn2[C@H]1CC(F)[C@@H](CO)O1		>200 µM
Cc1cccc(C(=O)Nc2ncc(Br)s2)c1O	neutral red	100 µM
O=c1cnc2ccccc2n1CC(O)CO		>10 µM
Nc1ncnc2c1nc(Br)n2[C@H]1CC[C@@H](CO)C1	visual reading	48 µM
C[C@H](NP(=O)(OC[C@H]1C=C[C@@H](n2ccc3c(N)ncnc32)C1)Oc1ccccc1)C(=O)OCc1ccccc1		>11 µM
COC1OC(Cn2ccc(=O)nc2SC)C(O)C1O		>100 µM
Nc1ncnc2c1nc(Cl)n2[C@H]1CC[C@@H](CO)C1	visual reading	>200 µM
O=c1cc(Sc2ccc(F)cc2)[nH]c(=O)[nH]1		>100 µM

A second listing of 3 rows from above:

smiles | method | result
CCc1c(Sc2cc(Cl)ccc2C)[nH]c(=O)[nH]c1=O |  | >100 µM
Nc1ncnc2c1ccn2[C@H]1CC(F)[C@@H](CO)O1 |  | >200 µM
Nc1ncnc2c1ccn2[C@H]1C=C[C@@H](CO)C1 |  | >200 µM